PubChem BioAssay AID504761 | Drosophila RNAi Screening Center | 2011
Assay: 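Insect host genes that dengue virus relies on to spread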 (primary screen). System: D.Mel-2 cells from Drosophila. Reagents: long dsRNA against Drosophila genes. Treatment: infection with dengue virus type 2; dose and infection time not stated. Detection: 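Cells stained for dengue envelope protein and imaged; percent of infected cells per well on duplicate plates, ranked by infection, with stained nuclei counted for cell number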. Reading the numbers: infection score: higher = more virus-infected cells. Call rule: 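Low infection ranks in the two replicates (chance level up to 0.065) followed by a retest with a 1.5-fold or larger significant decrease, p below 0.05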. Calls: active = confirmed: knock-down lowers infection; inactive = not picked or not confirmed.
In all, the deposit lists about 22,000 reagents; shown is a random part of those that have a named target and a result. In the full data, 116 (0.52%) got an active call. 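Calls depend on retest data that are not deposited; infection was ranked per plate without normalising between plates; the unit of the infection score is not given.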 A plus sign joins genes that one reagent is predicted to hit. Not all columns of the deposit are shown. Not given: the amount of reagent, the time to read-out.

infection score, replicate 1, by predicted target and reagent
KP78a + KP78b: DRSC16721 3.09 inactive; DRSC16722 1.43 inactive
CG10646 (GeneID 39426): DRSC09764 2.23 inactive
MED14 (GeneID 38073): DRSC08235 25.3 inactive; DRSC23587 4.27 inactive
CG7856 (GeneID 35533): DRSC04896 14.9 inactive
na (GeneID 45338): DRSC19639 15.3 inactive; DRSC29828 10.5 inactive
ox (GeneID 45401): DRSC07520 3.21 inactive
CG32425 (GeneID 40273): DRSC11764 10.9 inactive
CG9394 (GeneID 37399): DRSC04550 14.4 inactive
H15 (GeneID 33769): DRSC03339 3.51 inactive; DRSC22199 0.65 active; DRSC25176 1.29 inactive
toy (GeneID 43833): DRSC17222 3.5 inactive; DRSC25870 4.2 inactive
Prx6c (GeneID 36098): DRSC06080 15.9 inactive; DRSC28598 32 inactive
Lis-1 (GeneID 36791): DRSC07459 25.2 inactive
CG2909 (GeneID 31958): DRSC18241 10.7 inactive

Reformatted: 2 of the entries above
predicted target,DRSC id,"infection score, replicate 1",call
H15 (GeneID 33769),DRSC22199,0.65,active
H15 (GeneID 33769),DRSC25176,1.29,inactive

Further records:
infection score, replicate 1, by predicted target and reagent
CG2991 (GeneID 33488): DRSC00559 4.35 inactive; DRSC26300 12.7 inactive
RpL31 (GeneID 35988): DRSC06716 2.29 inactive; DRSC29618 12 inactive
Golgin104 (GeneID 39810): DRSC10459 5.93 inactive; DRSC26351 3.38 inactive
CG17147 (GeneID 40216): DRSC10249 12.1 inactive; DRSC29813 19.8 inactive
Irp-1A (GeneID 42689): DRSC16719 7.74 inactive
Tengl4 (GeneID 41321): DRSC15620 1.31 inactive
ftz (GeneID 40834): DRSC12626 8.29 inactive; DRSC28088 14.5 inactive
CG15027 (GeneID 32440): DRSC19608 3.15 inactive
dpr2 (GeneID 3346227): DRSC02370 9.62 inactive; DRSC02371 4.41 inactive
IntS10 (GeneID 38444): DRSC08173 0.9 inactive
Fkbp39 (GeneID 41860): DRSC16667 17.5 inactive; DRSC23792 0.94 inactive
CG8028 (GeneID 32923): DRSC20075 1.84 inactive
